Measured values from several laboratories, pooled; numbers as filed in NIAID ChemDB.

Common to all: whole-cell or culture tests; organism: Candida albicans; measure: MIC

a–b is a range or a potency band. Blank or dashed fields: not listed here. Conditions beyond the fields shown may differ between rows.

smiles	strain or isolate	value
CCOC(=O)c1nc2ccccc2nc1Nc1cc(OC)c(OC)c(OC)c1		1.9 µg/mL
CCC(C)C(N)C(=O)N[C@H]1[C@@H](O)[C@H](n2cnc3c(N)ncnc32)O[C@@H]1C(=O)O	FP633	0.4 µg/mL
COC(=O)c1ccc2nc(-c3ccccc3OC)[nH]c2c1		25 µg/mL
COc1ccc(C=NC23CC4CC(CC(C4)C2)C3)c(Cl)c1OC		64 µg/mL
CCC(C)CC(C)CCCCCCCCC(=O)N[C@@H]1C[C@@H](O)[C@@H](O)NC(=O)[C@@H]2[C@@H](O)CCN2C(=O)[C@H]([C@@H](O)CCN)NC(=O)[C@H]([C@H](O)[C@@H](O)c2ccc(O)cc2)NC(=O)[C@@H]2C[C@@H](O)CN2C(=O)[C@H]([C@H](C)O)NC1=O		≤0.06 µg/mL
CCCCCCCCC(=O)O[C@@H]1Cc2c(O)cc(O)cc2O[C@@H]1c1ccc(O)c(O)c1	ATCC 10231	16 µg/mL
CC1CCC(C(C)C)C(OC(=O)c2cccc(Cl)c2)C1		10.72 µM
CCCCCOc1ccc(-c2ccc(-c3ccc(CN[C@H]4CCCNC(=O)[C@@H]5C[C@H](N)CN5C(=O)[C@H]([C@@H](C)O)NC(=O)[C@H](CCc5ccc(O)cc5)NC(=O)[C@@H]5C[C@@H](O)CN5C(=O)[C@H]([C@@H](C)O)NC4=O)cc3)cc2)cc1	ATCC 38247	0.2 µg/mL
CC(=O)OC1CC(C)CCC1C(C)C		15.85 µM
CS(C)=O	MTCC 183	>100 µg/mL
O=C1C[C@H](Sc2ccccc2)N1		8–64 µg/mL
CCCCCOc1ccc(-c2ccc(-c3ccc(C(=O)N[C@H]4CCCNC(=O)[C@@H]5[C@H](N)CCN5C(=O)[C@H]([C@@H](C)O)NC(=O)[C@H](CCc5ccc(O)cc5)NC(=O)[C@@H]5C[C@@H](O)CN5C(=O)[C@H]([C@@H](C)O)NC4=O)cc3)cc2)cc1	ATCC 38247	0.1 µg/mL
CCS(=O)(=O)C(F)(F)C(O)(Cn1cncn1)c1ccc(F)cc1F	IFM 40009	0.063 µg/mL
CCCCCCCCCC(=O)N[C@@H](CCCN=C(N)N)C(=O)NCCCNC(=O)[C@H](CCCN=C(N)N)NC(=O)CCCCCCCCC		166 µM
Cc1ccc(C(=O)OC2CC(C)CCC2C(C)C)cc1		11.48 µM
NC(N)=NCCC[C@H](NC(=O)Cc1ccccc1)C(=O)NCCCCCCNC(=O)[C@H](CCCN=C(N)N)NC(=O)Cc1ccccc1		>323 µM
COc1ccc(C(=O)OC2CC(C)CCC2C(C)C)cc1		21.38 µM
CCC(C)CC(C)CCCCCCCCC(=O)N[C@H]1C[C@@H](O)[C@@H](OCCN)NC(=O)[C@@H]2[C@@H](O)CCN2C(=O)[C@H]([C@@H](O)CCN)NC(=O)[C@H]([C@H](O)[C@@H](O)c2ccc(O)cc2)NC(=O)[C@@H]2C[C@@H](O)CN2C(=O)[C@H]([C@H](C)O)NC1=O		0.06 µg/mL
COc1ccccc1C(=O)OC1CC(C)CCC1C(C)C		10.72 µM
NC(N)=NCCC[C@H](NC(=O)Cc1ccccc1)C(=O)NCCCCCCCCCCNC(=O)[C@H](CCCN=C(N)N)NC(=O)Cc1ccccc1		312 µM
CC1CCC(C(C)C)C(OC(=O)c2cccc([N+](=O)[O-])c2)C1		4.68 µM
C[C@H]1[C@H](O)[C@@H](C)/C=C/C=C/C=C/C=C/C=C/C=C/C=C/[C@H](O[C@@H]2O[C@H](C)[C@@H](O)[C@H](N)[C@@H]2O)C[C@@H]2O[C@](O)(C[C@@H](O)C[C@@H](O)CC[C@H](O)[C@@H](O)C[C@@H](O)CC(=O)O[C@H]1C)C[C@H](O)[C@H]2C(=O)O	10 isolates	0.25–0.5 µg/mL
CCCCCCCCC(=O)O[C@H]1Cc2c(O)cc(O)cc2O[C@@H]1c1ccc(O)c(O)c1	ATCC 10231	8 µg/mL
CC(C)=CC1C[C@](C)(O)C2C3CCC4[C@@]5(C)CC[C@H](O[C@@H]6OC[C@H](O)[C@H](OC7O[C@H](CO)[C@@H](O)[C@H](O)[C@H]7O)[C@H]6O[C@@H]6O[C@@H](CO)[C@H](O)[C@H]6O)C(C)(C)C5CC[C@@]4(C)[C@@]34CO[C@@]2(C4)O1	ATCC 3153	120 µg/mL
COC(=O)c1ccc2nc(-c3cccs3)[nH]c2c1		50 µg/mL
CCCCCOc1ccc(-c2ccc(-c3ccc(C(=O)N[C@H]4CCCNC(=O)[C@@H]5C[C@H](N)CN5C(=O)[C@H](CCCCN)NC(=O)[C@H](CCc5ccc(O)cc5)NC(=O)[C@@H]5C[C@@H](O)CN5C(=O)[C@H]([C@@H](C)O)NC4=O)cc3)cc2)cc1	ATCC 38247	0.78 µg/mL
CC(=O)OC(CCCCCCC(O)c1ccccc1)C1=CCCOC1=O		>100 µg/mL
CCCCCCCCOc1ccc(C(=O)NC2C[C@@H](O)[C@@H](O)NC(=O)C3[C@@H](O)[C@@H](C)CN3C(=O)C(C(C)O)NC(=O)C([C@H](O)[C@@H](O)c3ccc(O)cc3)NC(=O)C3C[C@@H](O)CN3C(=O)C(C(C)O)NC2=O)cc1		0.62 µg/mL
Cc1c(O)cccc1C(=O)N[C@@H](CSc1ccccc1)[C@H](O)CN1C[C@H]2CCCC[C@H]2C[C@H]1C(=O)NC(C)(C)C	I152A	64 µg/mL
CCC(C)CCCCCCCCCCC(=O)N[C@H]1C[C@@H](O)[C@@H](O)NC(=O)C2[C@@H](O)[C@@H](C)CN2C(=O)C(CO)NC(=O)C([C@H](O)C(O)c2ccc(O)cc2)NC(=O)NC(=O)[C@@H]2C[C@@H](O)CN2C(=O)[C@H]([C@@H](C)O)NC1=O		0.97 µg/mL
COC(=O)c1ccc2nc(-c3ccccc3Cl)[nH]c2c1		50 µg/mL

Repeating the final 4 entries:

smiles	strain or isolate	value
CCCCCCCCOc1ccc(C(=O)NC2C[C@@H](O)[C@@H](O)NC(=O)C3[C@@H](O)[C@@H](C)CN3C(=O)C(C(C)O)NC(=O)C([C@H](O)[C@@H](O)c3ccc(O)cc3)NC(=O)C3C[C@@H](O)CN3C(=O)C(C(C)O)NC2=O)cc1		0.62 µg/mL
Cc1c(O)cccc1C(=O)N[C@@H](CSc1ccccc1)[C@H](O)CN1C[C@H]2CCCC[C@H]2C[C@H]1C(=O)NC(C)(C)C	I152A	64 µg/mL
CCC(C)CCCCCCCCCCC(=O)N[C@H]1C[C@@H](O)[C@@H](O)NC(=O)C2[C@@H](O)[C@@H](C)CN2C(=O)C(CO)NC(=O)C([C@H](O)C(O)c2ccc(O)cc2)NC(=O)NC(=O)[C@@H]2C[C@@H](O)CN2C(=O)[C@H]([C@@H](C)O)NC1=O		0.97 µg/mL
COC(=O)c1ccc2nc(-c3ccccc3Cl)[nH]c2c1		50 µg/mL